{"sequences": {"note": "The chains behind the UniProt entries cited, without tags or fusion partners.", "UniProt P69996, whole entry": "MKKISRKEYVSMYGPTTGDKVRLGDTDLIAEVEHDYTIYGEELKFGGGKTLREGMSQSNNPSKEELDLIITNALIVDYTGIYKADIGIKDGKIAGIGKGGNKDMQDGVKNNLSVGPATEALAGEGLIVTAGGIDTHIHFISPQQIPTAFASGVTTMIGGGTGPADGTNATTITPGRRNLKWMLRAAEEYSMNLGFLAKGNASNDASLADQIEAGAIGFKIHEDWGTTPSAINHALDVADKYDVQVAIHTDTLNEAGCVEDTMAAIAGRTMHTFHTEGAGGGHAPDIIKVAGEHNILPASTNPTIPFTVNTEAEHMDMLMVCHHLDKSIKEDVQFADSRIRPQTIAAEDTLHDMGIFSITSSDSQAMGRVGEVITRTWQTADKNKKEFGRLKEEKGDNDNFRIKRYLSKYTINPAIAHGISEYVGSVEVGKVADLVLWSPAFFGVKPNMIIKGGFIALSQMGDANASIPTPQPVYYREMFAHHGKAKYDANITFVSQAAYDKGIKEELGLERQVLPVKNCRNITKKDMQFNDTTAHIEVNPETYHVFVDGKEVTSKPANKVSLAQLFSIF", "UniProt P14916, whole entry partner": "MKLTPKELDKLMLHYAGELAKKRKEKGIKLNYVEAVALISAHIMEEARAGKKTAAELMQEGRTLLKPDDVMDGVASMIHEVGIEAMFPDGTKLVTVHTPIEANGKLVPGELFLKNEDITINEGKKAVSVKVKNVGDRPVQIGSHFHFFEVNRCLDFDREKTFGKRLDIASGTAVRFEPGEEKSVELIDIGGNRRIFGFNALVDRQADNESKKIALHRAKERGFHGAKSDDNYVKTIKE"}, "source": "patent US6709851B1", "about": "“Stabilization of helicobacter urease” (OraVax-Merieux Co., priority 1997, dated 2004)", "biological_target": "in vitro activated urease (Helicobacter pylori, UniProt P69996)", "assay": "Inactivation of in vitro activated urease, phenol broth assay", "format": "biochemical", "details": "5 mM TNBSA", "note": "Some compounds may have been tested in ways that are not shown here."}
{"substance": "trinitrobenzene sulfonic acid", "values": [{"measurement": "effect of TNBSA on in vitro activated urease activity", "result": "did not inactivate the enzymatic activity"}]}
